Source: paper PMC5040351 (Arteriosclerosis, thrombosis, and vascular biology, 2016)

Molecular target: T1, recombinant full-length calnexin (CNX), purified by the CL7/Im7 system (UniProt P27824 21-592)
T1 sequence (looked up): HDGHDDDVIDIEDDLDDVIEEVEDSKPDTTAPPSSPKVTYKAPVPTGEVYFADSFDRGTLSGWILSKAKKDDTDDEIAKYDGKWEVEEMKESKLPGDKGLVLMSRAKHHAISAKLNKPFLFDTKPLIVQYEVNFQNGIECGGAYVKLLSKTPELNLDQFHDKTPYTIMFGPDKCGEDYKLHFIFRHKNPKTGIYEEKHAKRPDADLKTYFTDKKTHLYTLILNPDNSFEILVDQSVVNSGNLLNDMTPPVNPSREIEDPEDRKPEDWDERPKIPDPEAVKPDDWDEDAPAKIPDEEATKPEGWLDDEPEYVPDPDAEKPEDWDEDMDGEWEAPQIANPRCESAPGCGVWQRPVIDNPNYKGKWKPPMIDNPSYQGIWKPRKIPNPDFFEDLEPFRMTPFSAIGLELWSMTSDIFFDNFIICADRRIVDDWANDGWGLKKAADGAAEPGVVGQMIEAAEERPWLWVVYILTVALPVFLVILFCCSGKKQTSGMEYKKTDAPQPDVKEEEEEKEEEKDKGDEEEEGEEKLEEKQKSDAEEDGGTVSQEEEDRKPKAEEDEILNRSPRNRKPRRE
Assay: SPR

B1: myristoylated NefSF2 protein (natural protein)
chain: not shown
modifications: myristoylated
Kd: 89.1 nM
koff: 0.0119 s⁻¹
kon: 134000 M⁻¹ s⁻¹
